A mixed list of measured activities; the numbers were collected in NIAID ChemDB.

Shared fields: whole-cell or culture tests

MIC50, MIC90 and the like: level of inhibition, or share of isolates inhibited.

compound | measure | method | tested at | setting | agent | strain or isolate | result
FC(F)(F)c1ccc(N2CCN(c3ccc(Nc4ncnc5ccccc45)cc3)CC2)nc1 | MIC50 | luminescence | - | - | Mycobacterium bovis BCG | - | >20 µM
Cc1cn([C@H]2C=C[C@@H](CO)O2)c(=O)[nH]c1=O | EC50 | - | - | - | Mycobacterium avium | ATCC 25291 | >50 µg/mL
CCc1nc2ccc(Cl)cn2c1C(=O)NCc1ccc([C@@H]2CO[C@@H](c3ccc(OC(F)(F)F)cc3)CO2)c(F)c1.Cl | inhibition | fluorescence | 0.028 µM | - | Mycobacterium avium | - | 85%
Fc1ccc2c(Nc3ccc(NCCN4CCOCC4)cc3)ncnc2c1 | MIC50 | luminescence | - | - | Mycobacterium bovis BCG | - | >10 µM
O=C(NCc1ccc(N2CCSCC2)cc1)c1c(Cl)nc2ccccn12 | MIC50 | fluorescence | - | - | Mycobacterium ulcerans | - | 0.1–1 µg/mL
FC(F)(F)Oc1ccc(Nc2ncnc3ccccc23)cc1 | MIC50 | luminescence | - | - | Mycobacterium bovis BCG | - | >50 µM
Cc1nc2ccc(Br)cn2c1C(=O)NCc1ccc(N2CCC(c3ccc(F)cc3)CC2)cc1 | inhibition | fluorescence | 0.016 µM | - | Mycobacterium avium | - | 85%
O=C(Oc1cc(Cl)ccc1C(=O)Nc1ccc(Cl)c(Cl)c1)c1cnccn1 | MIC | - | - | 21 d | Mycobacterium kansasii | 6509/96 | 4 µM
CC1CN(c2cc3c(cc2F)c(=O)c(C(=O)O)cn3-c2ccc(F)cc2F)CCN1 | MBC | - | - | - | Mycobacterium fortuitum | ATCC 6841 | 8 µg/mL
O=C(Oc1ccc(Cl)cc1C(=O)Nc1ccc(F)cc1)c1cnccn1 | MIC | - | - | 21 d | Mycobacterium kansasii | 235/80 | 8 µM
CC(C)(C)c1ccc(CCOc2ncnc3sccc23)cc1 | MIC50 | luminescence | - | - | Mycobacterium bovis BCG | - | >20 µM
CC[C@H]1OC(=O)[C@H](C)[C@@H](O[C@H]2C[C@@](C)(OC)[C@@H](O)[C@H](C)O2)[C@H](C)[C@@H](O[C@@H]2O[C@H](C)C[C@H](N(C)C)[C@H]2O)[C@](C)(O)C[C@@H](C)CN(C)[C@H](C)[C@@H](O)[C@]1(C)O | MBC90 | - | - | - | Mycobacterium fortuitum | 25 isolates | >8 µg/mL
COc1ccc2ncnc(NCCc3ccc(OC(F)(F)F)cc3)c2c1 | MIC50 | luminescence | - | - | Mycobacterium bovis BCG | - | >20 µM
Cc1ccn2c(C(=O)NCc3ccc(N4CCOCC4)cc3)c(C)nc2c1 | MIC50 | fluorescence | - | - | Mycobacterium ulcerans | - | 0.1–1 µg/mL
CCc1nc2cc(F)ccn2c1C(=O)NCc1ccc(N2CCN(c3ccc(OC(F)(F)C(F)(F)F)cc3)[C@@H](C)C2)c(F)c1.Cl | inhibition | fluorescence | 0.003 µM | - | Mycobacterium avium | - | 85%
CO[C@H]1/C=C/O[C@@]2(C)Oc3c(C)c(O)c4c(=O)c(c5oc6cc(N7CCN(CC(C)C)CC7)cc(=O)c6nc5c4c3=C2O)NC(=O)/C(C)=C\C=C\[C@H](C)[C@H](O)[C@@H](C)[C@@H](O)[C@@H](C)[C@H](OC(C)=O)[C@@H]1C | MIC | - | - | - | Mycobacterium ulcerans | ATCC 19423 | 0.025 µg/mL
CCCCc1ccc(NC(=O)NNC(=O)c2ccncc2)cc1 | MIC100 | broth dilution | - | 21 d | Mycobacterium kansasii | My 6509/96 | 62.5 µM
FC(F)(F)Oc1ccc(CCNc2ncnc3ccoc23)cc1 | MIC50 | luminescence | - | - | Mycobacterium bovis BCG | - | >20 µM
CCc1nc2ccc(Cl)cn2c1C(=O)NCc1ccc(-c2ccc(Cl)cc2)cc1 | MIC50 | fluorescence | - | - | Mycobacterium ulcerans | - | 0.001–0.01 µg/mL
FS(F)(F)(F)(F)c1ccc(CCNc2ncnc3ccsc23)cc1 | MIC50 | luminescence | - | - | Mycobacterium bovis BCG | - | >50 µM
CCCCCCCNC(=O)NNC(=O)c1ccncc1 | MIC100 | broth dilution | - | 7 d | Mycobacterium kansasii | My 235/80 | 32 µM
NC1CCN(c2c(F)cc3c(=O)c(C(=O)O)cn(C4CC4)c3c2Cl)C1 | MBC | - | - | - | Mycobacterium fortuitum | ATCC 6841 | 0.5 µg/mL
O=c1[nH]c(=O)n([C@H]2C[C@H](F)[C@@H](CO)O2)cc1Cl | inhibition | - | 50 µg/mL | - | Mycobacterium avium | ATCC 25291 | 0%
CC1COc2c(N3CCN(C)CC3)c(F)cc3c(=O)c(C(=O)O)cn1c23 | MBC90 | - | - | - | Mycobacterium fortuitum | 25 isolates | >4 µg/mL
O=C(NNC(=O)c1ccncc1)Nc1ccc(Br)c(C(F)(F)F)c1 | MIC100 | broth dilution | - | 14 d | Mycobacterium kansasii | My 235/80 | >125 µM
Cc1nc2ccc(Cl)cn2c1C(=O)NCc1ccc(C2CCN(c3ccc(OC(F)(F)F)cc3)CC2)c(F)c1 | inhibition | fluorescence | 0.0031 µM | - | Mycobacterium avium | - | 85%
O=C(Oc1ccc(Cl)cc1C(=O)Nc1cccc(C(F)(F)F)c1)c1cnccn1 | MIC | - | - | 7 d | Mycobacterium kansasii | 6509/96 | 4 µM
CC(C)N=c1cc2n(-c3ccc(Cl)cc3)c3ccccc3nc-2cc1Nc1ccc(Cl)cc1 | MIC50 | broth dilution | - | - | Mycobacterium chelonae | - | ≤0.5 µg/mL
O=C(NNC(=O)c1ccncc1)Nc1ccc(F)c(Cl)c1 | MIC100 | broth dilution | - | 14 d | Mycobacterium kansasii | My 6509/96 | >125 µM
CC[C@H]1OC(=O)[C@H](C)[C@@H](O[C@H]2C[C@@](C)(OC)[C@@H](O)[C@H](C)O2)[C@H](C)[C@@H](O[C@@H]2O[C@H](C)C[C@H](N(C)C)[C@H]2O)[C@](C)(OC)C[C@@H](C)C(=O)[C@H](C)[C@@H](O)[C@]1(C)O | MBC90 | - | - | - | Mycobacterium fortuitum | 25 isolates | >8 µg/mL
Nc1ccc(C(=O)O)c(O)c1 | MIC | - | - | 14 d | Mycobacterium kansasii | 6509/96 | 125 µM
O=C(NNC(=O)c1ccncc1)Nc1c(Cl)cc(Cl)cc1Cl | MIC100 | broth dilution | - | 7 d | Mycobacterium kansasii | My 6509/96 | 125 µM
CC(=O)OC[C@H]1O[C@@H](n2cc(C(F)CBr)c(=O)[nH]c2=O)C[C@@H]1OC(C)=O | EC50 | - | - | - | Mycobacterium avium | ATCC 25291 | <5 µg/mL
O=C(Oc1ccc(Cl)cc1C(=O)Nc1ccc(Cl)c(Cl)c1)c1cnccn1 | MIC | - | - | 14 d | Mycobacterium kansasii | 6509/96 | 2 µM
Cc1nc(Nc2ccc(Oc3ccc(C(F)(F)F)cc3)cc2)c2ccccc2n1 | MIC50 | luminescence | - | - | Mycobacterium bovis BCG | - | >20 µM
O=c1ccn([C@H]2C[C@H](F)[C@@H](CO)O2)c(=O)[nH]1 | inhibition | - | 50 µg/mL | - | Mycobacterium avium | ATCC 25291 | 0%
COc1ccc(NC(=O)NNC(=O)c2ccncc2)cc1 | MIC100 | broth dilution | - | 7 d | Mycobacterium kansasii | My 6509/96 | >125 µM
Cc1ccc2nc(C)c(C(=O)NCc3ccc(-c4ccccc4)cc3)n2c1 | MIC50 | fluorescence | - | - | Mycobacterium ulcerans | - | 0.001–0.01 µg/mL
O=c1[nH]c(=O)n([C@H]2C[C@H](F)[C@@H](CO)O2)cc1F | inhibition | - | 50 µg/mL | - | Mycobacterium avium | ATCC 25291 | 0%
Cc1ccn2c(C(=O)NCc3ccc(N4CCN(c5ccc(OC(F)(F)F)cc5)[C@@H](C)C4)c(F)c3)c(Cl)nc2c1.Cl | inhibition | fluorescence | 0.077 µM | - | Mycobacterium avium | - | 85%
FC(F)(F)Oc1ccc(CNc2ncnc3ccsc23)cc1 | MIC50 | luminescence | - | - | Mycobacterium bovis BCG | - | >50 µM
Cc1nc2ccc(F)cn2c1C(=O)NCc1ccc(N2CCN(c3ccc(OC(F)(F)F)cc3)C(C)(C)C2)c(F)c1 | inhibition | fluorescence | 0.068 µM | - | Mycobacterium avium | - | 85%
FC(F)(F)c1ccc(Oc2ccc(Nc3ncnc4ccoc34)cc2)cc1 | MIC50 | luminescence | - | - | Mycobacterium bovis BCG | - | >20 µM
Cc1ccn2nc(C(F)(F)F)c(C(=O)NCc3ccc(N4CCN(c5ccc(OC(F)(F)F)cc5)[C@@H](C)C4)c(F)c3)c2c1.Cl | inhibition | fluorescence | 0.27 µM | - | Mycobacterium avium | - | 85%
c1ccc(CCNc2ncnc3ccccc23)cc1 | MIC50 | luminescence | - | - | Mycobacterium bovis BCG | - | >10 µM
O=C(NCc1ccc(N2CCCCC2)cc1)c1c(Cl)nc2ccccn12 | MIC50 | fluorescence | - | - | Mycobacterium ulcerans | - | 0.01–0.1 µg/mL
FC(F)(F)c1cccc(Oc2ccc(Nc3ncnc4ccccc34)cc2)c1 | MIC50 | luminescence | - | - | Mycobacterium bovis BCG | - | >20 µM
C=Cc1cn([C@H]2C[C@H](O)[C@@H](CO)O2)c(=O)[nH]c1=O | inhibition | - | 50 µg/mL | - | Mycobacterium avium | ATCC 25291 | 0%
CC(C)=CCC/C(C)=C/CNc1ncnc2ccsc12 | MIC50 | luminescence | - | - | Mycobacterium bovis BCG | - | >20 µM
CC(=O)OC[C@H]1O[C@@H](n2cc(/C=C/I)c(=O)[nH]c2=O)C[C@@H]1OC(C)=O | inhibition | - | 50 µg/mL | - | Mycobacterium avium | ATCC 25291 | 0%
Fc1cc(Nc2ncnc3ccccc23)ccc1N1CCOCC1 | MIC50 | luminescence | - | - | Mycobacterium bovis BCG | - | >50 µM
O=C(Oc1ccc(Cl)cc1)c1cnccn1 | MIC | - | - | 21 d | Mycobacterium kansasii | 6509/96 | 500 µM
FC(F)(F)c1ccc(Oc2ccc(Nc3ncnc4ccccc34)cc2)cc1 | MIC50 | luminescence | - | - | Mycobacterium bovis BCG | - | >20 µM
CO[C@H]1/C=C/O[C@@]2(C)Oc3c(C)c(O)c4c(O)c(c5c(c4c3C2=O)NC2(CCN(CC(C)C)CC2)N=5)=NC(=O)/C(C)=C\C=C\[C@H](C)[C@H](O)[C@@H](C)[C@@H](O)[C@@H](C)[C@H](OC(C)=O)[C@@H]1C | MIC | - | - | - | Mycobacterium avium intracellulare | 141 | 0.5 µg/mL
Cn1ccc2ncnc(Nc3ccc(Oc4ccc(C(F)(F)F)cc4)cc3)c21 | MIC50 | luminescence | - | - | Mycobacterium bovis BCG | - | 25.9 µM
CO[C@@H]1[C@H](O)[C@@H](CO)O[C@H]1n1cc(C)c(=O)[nH]c1=O | EC50 | - | - | - | Mycobacterium avium | ATCC 25291 | >50 µg/mL
NCCS | MIC100 | broth dilution / visual reading | - | - | Mycobacterium abscessus | Clinical isolate MR313292 | 125–250 µg/mL
FC(F)(F)Oc1ccc(CCNc2ncnc3ccsc23)cc1 | MIC50 | luminescence | - | - | Mycobacterium bovis BCG | - | >50 µM

A second listing of 9 rows from above:

CCc1nc2cc(F)ccn2c1C(=O)NCc1ccc(N2CCN(c3ccc(OC(F)(F)C(F)(F)F)cc3)[C@@H](C)C2)c(F)c1.Cl ; measure: inhibition ; method: fluorescence ; tested at: 0.003 µM ; agent: Mycobacterium avium ; result: 85%
O=C(NCc1ccc(N2CCSCC2)cc1)c1c(Cl)nc2ccccn12 ; measure: MIC50 ; method: fluorescence ; agent: Mycobacterium ulcerans ; result: 0.1–1 µg/mL
CC[C@H]1OC(=O)[C@H](C)[C@@H](O[C@H]2C[C@@](C)(OC)[C@@H](O)[C@H](C)O2)[C@H](C)[C@@H](O[C@@H]2O[C@H](C)C[C@H](N(C)C)[C@H]2O)[C@](C)(OC)C[C@@H](C)C(=O)[C@H](C)[C@@H](O)[C@]1(C)O ; measure: MBC90 ; agent: Mycobacterium fortuitum ; strain or isolate: 25 isolates ; result: >8 µg/mL
O=C(Oc1ccc(Cl)cc1C(=O)Nc1ccc(Cl)c(Cl)c1)c1cnccn1 ; measure: MIC ; setting: 14 d ; agent: Mycobacterium kansasii ; strain or isolate: 6509/96 ; result: 2 µM
Cc1nc2ccc(Cl)cn2c1C(=O)NCc1ccc(C2CCN(c3ccc(OC(F)(F)F)cc3)CC2)c(F)c1 ; measure: inhibition ; method: fluorescence ; tested at: 0.0031 µM ; agent: Mycobacterium avium ; result: 85%
Fc1cc(Nc2ncnc3ccccc23)ccc1N1CCOCC1 ; measure: MIC50 ; method: luminescence ; agent: Mycobacterium bovis BCG ; result: >50 µM
Cn1ccc2ncnc(Nc3ccc(Oc4ccc(C(F)(F)F)cc4)cc3)c21 ; measure: MIC50 ; method: luminescence ; agent: Mycobacterium bovis BCG ; result: 25.9 µM
O=C(NNC(=O)c1ccncc1)Nc1ccc(Br)c(C(F)(F)F)c1 ; measure: MIC100 ; method: broth dilution ; setting: 14 d ; agent: Mycobacterium kansasii ; strain or isolate: My 235/80 ; result: >125 µM
O=C(Oc1cc(Cl)ccc1C(=O)Nc1ccc(Cl)c(Cl)c1)c1cnccn1 ; measure: MIC ; setting: 21 d ; agent: Mycobacterium kansasii ; strain or isolate: 6509/96 ; result: 4 µM

An empty or dashed field is not shown. Conditions beyond the fields shown may differ between rows. a–b is a range or a potency band. Percent inhibition refers to the dose given; in toxicity tests it is the harm to the cells. ECn: concentration that inhibits the pathogen or its effect by n%.